Assay results as given in publication PMC10303457 (2023).

What was measured:
[1] = molecular target: Human IMPα5 aa 74–538 (lacking the IMPβ binding domain) (human, UniProt P52294 74-538); test: FP
[2] = molecular target: Human IMPα1 aa 71–529 (lacking the IMPβ binding domain) (human, UniProt P52292 71-529); test: FP

VRRAGKYYSVEYCKRKID [FITC-labelled HeV M NLS2 peptide]
Kd [1]: 5.28 µM
Kd [2]: 8.71 µM
